Compound potency records, mixed from different reports. Data source: NIAID ChemDB in PubChem.

Shared fields: growth or infection tests; organism: HIV-1; endpoint: EC50

a–b is a range or a potency band. Blank or dashed fields: not listed here. Conditions beyond the fields shown may differ between rows. ECn is the concentration giving n% inhibition of infection, replication or growth.

compound,changes,strain,cells,read by,result
CCCc1cc(=O)oc2c3c(c4c(c12)OC(C)(C)CC4)O[C@@H](C)[C@H](C)[C@@H]3O,RT-D67N K70R Y181C T215Y K219Q,NL4-3(RT-4XAZT+Y181C),CEM + CEM-SS,XTT,<0.06 µM
Cc1cc(S(N)(=O)=O)ccc1NC(=O)COc1ccc(Cl)cc1C(=O)c1cc(F)cc(C#N)c1,RT-K103N V108I,HXB2,HeLa + HELA CD4+,β-galactosidase,<0.01 µM
Cc1nc(C)c(C(=O)NC(C)(C)CNCC[C@@]23CC[C@]4(C)[C@H](CC[C@@H]5[C@@]6(C)CC[C@H](OC(=O)[C@H]7C[C@@H](C(=O)O)C7(C)C)C(C)(C)[C@@H]6CC[C@]54C)C2=C(C(C)C)C(=O)C3)s1,-,92HT599,MT-2,p24 / ELISA,<1 µM
CCC(=O)c1ccc(F)c([C@@H]2C[C@@H]2NC(=O)Nc2ccc(C#N)cn2)c1O,NNRTI-resistant (RT V108I),LAI,TZM-bl,β-galactosidase / luminescence,0.00089 µM
CC(C)C1=C2[C@H]3CC[C@@H]4[C@@]5(C)CC[C@H](OC(=O)[C@H]6C[C@@H](C(=O)O)C6(C)C)C(C)(C)[C@@H]5CC[C@@]4(C)[C@]3(C)CC[C@@]2(CC(=O)NCC(CCCN)NC(=O)c2ccc(Cl)cc2)CC1=O,-,92HT599,MT-2,p24 / ELISA,<1 µM
CC(C)CN(C[C@@H](O)[C@H](Cc1ccccc1)NC(=O)O[C@H]1CO[C@H]2OCC[C@H]21)S(=O)(=O)c1ccc2nc(NC3CCN(C4CCCC4)CC3)sc2c1,V32I L76V,T13436,MT-4,reporter gene,5.1 nM
CC1(C)CC=C(c2cn(-c3nccc(C(=O)NC4CCC(N5CC6CCC(C5)O6)CC4)n3)c3ccc(F)c([C@H](OC(C)(C)C)C(=O)O)c23)CC1,T124V,NL4-3,MT-4,luminescence,0.0016 µM
CC1CC(C)CN(S(=O)(=O)c2ccccc2[N+](=O)[O-])C1,-,4755-5,HeLa,GFP / fluorescence,0.31 µM
Cc1cc2cn[nH]c2cc1NC(=O)COc1ccc(Cl)cc1C(=O)c1cccc(C#N)c1,RT-P236L,HXB2,HeLa + HELA CD4+,β-galactosidase,0.011–0.1 µM
CN1c2ccccc2C2C1C=C(C#N)C(=O)N2c1ccc([N+](=O)[O-])cc1,-,2AG,HeLa,GFP / fluorescence,0.19 µM
Nc1nc(NC2CC2)c2ncn([C@H]3C=C[C@@H](CO)C3)c2n1,T69ins/K70R/M184V/K219Q,Clinical isolate,MT-2,recombinant virus assay,1.232 µM
Cc1ncc(-c2ccc(OCCOc3ccccc3)cn2)c(N2CCC(C)(C)CC2)c1[C@H](OC(C)(C)C)C(=O)O,-,NL4-3,MT-2,luminescence,0.0012 µM
Cc1cc(S(N)(=O)=O)ccc1NC(=O)COc1ccc(Cl)cc1C(=O)c1cccc(C#N)c1,RT-K101E,HXB2,HeLa + HELA CD4+,β-galactosidase,<0.01 µM
Cc1ncc(-c2cnc(O[C@@H](C)C3CCC3)c(F)c2)c(N2CCC(C)(C)CC2)c1[C@H](OC(C)(C)C)C(=O)O,-,NL4-3,MT-2,luminescence,0.0193 µM
Cc1cc(N2CCS(=O)CC2)ccc1NC(=O)COc1ccc(Cl)cc1C(=O)c1nccs1,-,IIIB,MT-4,cytopathic effect / propidium iodide,0.011–0.1 µM
Cc1ncc(-c2ccc(OCCn3nc(C(F)F)c4c3C(F)(F)[C@@H]3C[C@H]43)cn2)c(N2CCC(C)(C)CC2)c1[C@H](OC(C)(C)C)C(=O)O,-,NL4-3,MT-2,luminescence,0.0026 µM
CS(=O)(=O)Nc1ccc(NC(=O)COc2ccc(Cl)cc2C(=O)c2ccccc2)cc1,RT-K103N Y181C,HXB2 (RT-K103N Y181C) Recombinant,HeLa + HELA CD4+,β-galactosidase,0.101–1 µM
Cc1nc2ccccc2c(-c2cc(F)c3c(c2C)CCCO3)c1[C@H](OC(C)(C)C)C(=O)O,H171T,NL4-3,MT-4,luminescence,1.91 µM
Cc1cc(S(N)(=O)=O)ccc1NC(=O)COc1ccc(Cl)cc1C(=O)c1cc(Cl)cc(C#N)c1,RT-V108I Y181C,HXB2,HeLa + HELA CD4+,β-galactosidase,<0.01 µM
CC(C)=CCOc1cc(NC(=S)c2ccsc2C)ccc1Cl,RT-Y181C K101E,UC10-resistant (RT Y181C K101E),CEM + CEM-SS,cytopathic effect / XTT,1.5 µM
C[C@H](Cn1cnc2c(N)ncnc21)OCP(=O)(O)O,D67N/T69N/K70R/K103N/M184V/T215F/K219Q,Clinical isolate,MT-2,recombinant virus assay,0.004 µM
Cc1ncc(-c2ccc(OCC3CC3C)nc2)c(N2CCC(C)(C)CC2)c1[C@H](OC(C)(C)C)C(=O)O,-,NL4-3,MT-2,luminescence,0.0042 µM
O=C(O)c1cc(-n2cccc2)ccc1Cl,-,93BR020 X4R5 CLADE F,PBMC/5.25M7,luciferase / cell fusion,10.08 µM
Cc1ncc(-c2cnc(SCC(C)C)c(F)c2)c(N2CCC(C)(C)CC2)c1[C@H](OC(C)(C)C)C(=O)O,-,NL4-3,MT-2,luminescence,0.0047 µM
CC(C)=CCOc1cc(NC(=S)c2ccoc2C)ccc1Cl,-,4xAZT,CEM + CEM-SS,cytopathic effect / XTT,0.006 µM
Cc1ncc(-c2cnc(OCCC3=CCCCC3)c(F)c2)c(N2CCC(C)(C)CC2)c1[C@H](OC(C)(C)C)C(=O)O,-,NL4-3,MT-2,luminescence,0.0054 µM
CC(C)C1=C2[C@H]3CC[C@@H]4[C@@]5(C)CC[C@H](OC(=O)[C@H]6C[C@@H](C(=O)O)C6(C)C)C(C)(C)[C@@H]5CC[C@@]4(C)[C@]3(C)CC[C@@]2([C@@H](O)CNCC(C)(C)NC(=O)c2nccn2C)CC1=O,-,92HT599,MT-2,p24 / ELISA,<1 µM
Cc1cc(S(N)(=O)=O)ccc1NC(=O)COc1ccc(Cl)cc1C(=O)c1cc(C#N)cc(C#N)c1,-,WTRVA,HeLa + HELA CD4+,β-galactosidase,<0.01 µM
CC(C)C1=C2[C@H]3CC[C@@H]4[C@@]5(C)CC[C@H](OC(=O)[C@H]6C[C@@H](C(=O)O)C6(C)C)C(C)(C)[C@@H]5CC[C@@]4(C)[C@]3(C)CC[C@@]2([C@@H](O)CNC[C@H](NC(=O)c2ccc(Cl)cc2)C(C)O)CC1=O,-,92HT599,MT-2,p24 / ELISA,<1 µM
Cc1ncc(-c2ccc(OCCC(C)(C)O)cn2)c(N2CCC(C)(C)CC2)c1[C@H](OC(C)(C)C)C(=O)O,-,NL4-3,MT-2,luminescence,0.0481 µM
CC(C)C1=C2[C@H]3CC[C@@H]4[C@@]5(C)CC[C@H](OC(=O)[C@H]6C[C@@H](C(=O)O)C6(C)C)C(C)(C)[C@@H]5CC[C@@]4(C)[C@]3(C)CC[C@@]2(CC(=O)NCC(C)(C)NC(=O)c2ccc(Cl)cc2OCCN2CCOCC2)CC1=O,-,92HT599,MT-2,p24 / ELISA,<1 µM
COc1ccccc1C(=O)Nc1ccc(Cl)c(C(=O)OC(C)C)c1,RT-Y181C,UC781-R (RT-Y181C),CEM + CEM-SS,cytopathic effect / XTT,10.1 µM

Repeating the first 5 entries:

| compound | changes | strain | cells | read by | result |
|---|---|---|---|---|---|
| CCCc1cc(=O)oc2c3c(c4c(c12)OC(C)(C)CC4)O[C@@H](C)[C@H](C)[C@@H]3O | RT-D67N K70R Y181C T215Y K219Q | NL4-3(RT-4XAZT+Y181C) | CEM + CEM-SS | XTT | <0.06 µM |
| Cc1cc(S(N)(=O)=O)ccc1NC(=O)COc1ccc(Cl)cc1C(=O)c1cc(F)cc(C#N)c1 | RT-K103N V108I | HXB2 | HeLa + HELA CD4+ | β-galactosidase | <0.01 µM |
| Cc1nc(C)c(C(=O)NC(C)(C)CNCC[C@@]23CC[C@]4(C)[C@H](CC[C@@H]5[C@@]6(C)CC[C@H](OC(=O)[C@H]7C[C@@H](C(=O)O)C7(C)C)C(C)(C)[C@@H]6CC[C@]54C)C2=C(C(C)C)C(=O)C3)s1 | - | 92HT599 | MT-2 | p24 / ELISA | <1 µM |
| CCC(=O)c1ccc(F)c([C@@H]2C[C@@H]2NC(=O)Nc2ccc(C#N)cn2)c1O | NNRTI-resistant (RT V108I) | LAI | TZM-bl | β-galactosidase / luminescence | 0.00089 µM |
| CC(C)C1=C2[C@H]3CC[C@@H]4[C@@]5(C)CC[C@H](OC(=O)[C@H]6C[C@@H](C(=O)O)C6(C)C)C(C)(C)[C@@H]5CC[C@@]4(C)[C@]3(C)CC[C@@]2(CC(=O)NCC(CCCN)NC(=O)c2ccc(Cl)cc2)CC1=O | - | 92HT599 | MT-2 | p24 / ELISA | <1 µM |